Anti-infective test results gathered from many reports (values: NIAID ChemDB through PubChem).

Common to all: target-level tests; species: HIV-1; protein: Protease; measure: inhibition

Conditions beyond the fields shown may differ between rows. Percent inhibition refers to the dose given; in toxicity tests it is the harm to the cells. Blank or dashed fields: not listed here.

| smiles | method | setting | tested at | value |
|---|---|---|---|---|
| CC(C)(C)OC(=O)N[C@@H](Cc1ccccc1)[C@H](O)CNC[C@@H](O)[C@H](Cc1ccccc1)NC(=O)C1[C@H](O)CCC1(C)C | HPLC | pH 5.5 | 10 µM | 100% |
| NS(=O)(=O)c1cccc(CN2C(=O)N(Cc3cccc(S(N)(=O)=O)c3)N(Cc3ccccc3)C[C@@H](O)[C@H]2Cc2ccccc2)c1 | fluorescence |  | 0.0005 µM | 54.8% |
| CC1CCC2(C(=O)O)CCC3(C)C(=CCC4C5(C)CCC(O)C(C)(C(=O)O)C5=CCC43C)C2C1C | substrate cleavage / fluorescence |  | 100 µg/mL | <50% |
| CC(C)[C@H](NC(=O)OCc1ccccn1)C(=O)NC(Cc1ccccc1)C(O)C(F)(F)C(Cc1ccccc1)NC(=O)OC(C)(C)C | fluorescence |  | 0.01 µM | 48% |
| Cc1cccc(C)c1OCC(=O)N[C@@H](Cc1ccccc1)[C@H](O)C(=O)N1CSC(C)(C)[C@H]1C(=O)NCc1ccccn1 | HPLC |  | 0.05 µM | 57.8% |
| CC(C)C/C=C/[C@@H](C)C1CCC2C3=C[C@@H](O)[C@@]4(O)C[C@@H](O)CC[C@]4(C)C3CC[C@@]21C | substrate cleavage |  | 240 µM | 17.61% |
| CC[C@H](C)C(O)C(C)(O)/C=C/C1=CC2=CC(=O)[C@](C)(O)[C@H](O)[C@H]2CO1 | HPLC |  | 100 µg/mL | 0% |
| Cc1cccc(C)c1OCC(=O)N[C@@H](Cc1ccccc1)[C@H](O)C(=O)N1CSC(C)(C)[C@H]1C(=O)NCc1ccc(C(N)=O)cc1 | HPLC |  | 0.05 µM | 3.3% |
| O=C1CC(c2ccc(O)c(O)c2)Oc2cc(O)cc(O)c21 | fluorescence |  | 50 µg/mL | 19.5% |
| CC(=O)O[C@H]1CC(=O)OC(C)(C)[C@@H]2CC(=O)[C@]3(C)[C@H](CC[C@@]4(C)[C@H](c5ccoc5)OC(=O)[C@H]5O[C@]543)[C@@]12C |  |  | 20 µM | 60% |
| COc1ccc(-c2cc(=O)c3ccc(O)cc3o2)cc1 | HPLC |  | 50 µg/mL | 0% |
| CCC(C)[C@H](NC(=O)CCCCCCCCCCCCCCC(=O)N[C@@H](CC(N)=O)C(=O)N[C@@H](Cc1ccccc1)C(=O)O)C(=O)N[C@@H](CCO)C(N)=O | HPLC |  | 1 µM | 8% |
| CC(C)[C@H](NC(=O)Cc1cccnc1)C(=O)N[C@@H](Cc1ccccc1)[C@@H](O)[C@H](O)[C@H](Cc1ccccc1)NC(=O)[C@@H](NC(=O)Cc1cccnc1)C(C)C | fluorescence |  | 0.01 µM | 62% |
| Cc1c(O)cccc1C(=O)N[C@@H](Cc1ccccc1)[C@H](O)C(=O)N1CSC(C)(C)[C@H]1C(=O)NCc1ccc2c(c1)OCO2 | HPLC |  | 0.05 µM | 67.6% |
| O=c1cc(-c2ccc(O)c(O)c2)oc2cc(O)cc(O)c12 | HPLC |  | 50 µg/mL | 42.4% |
| O=C(CCc1ccccc1)C(F)(F)Cc1ccccc1 | fluorescence |  | 270 µM | 94% |
| O=C1OC2[C@H]3COC(=O)c4cc(O)c(O)c5c4C4C(=CC(=O)[C@@](O)(O5)C4(O)O)C(=O)O[C@@H]2[C@@H](OC(=O)c2cc(O)c(O)c4c2C2C1=CC(=O)[C@](O)(O4)C2(O)O)[C@H](OC(=O)c1cc(O)c(O)c(O)c1)O3 | HPLC |  | 50 µg/mL | 0% |
| CC(C)[C@H](NC(=O)OCc1ccccc1)C(=O)N[C@@H](Cc1ccccc1)C(O)[C@H](Cc1ccccc1)NC(=O)[C@@H](NC(=O)OC(C)(C)C)C(C)C | fluorescence |  | 0.1 µM | 53% |
| COC(=O)c1cccc(CNC(=O)[C@H]2N(C(=O)[C@@H](O)[C@H](Cc3ccccc3)NC(=O)COc3c(C)cccc3C)CSC2(C)C)c1 | HPLC |  | 0.05 µM | 45% |
| COc1cc(CN2C(=O)N(Cc3ccc(O)c(OC)c3)N(c3ccc(OCCN4CCOCC4)cc3)C[C@@H](O)[C@H]2Cc2ccccc2)ccc1O | fluorescence |  | 0.0005 µM | 84% |
| NC(=O)C[C@H](NC(=O)OCc1ccccc1)C(=O)NC(Cc1ccccc1)C(O)C(Cc1ccccc1)NC(=O)[C@H](CC(N)=O)NC(=O)OCc1ccccc1 | fluorescence |  | 0.91 µM | 51% |
| CNC(=O)C(O)(C(=O)N[C@@H](Cc1ccccc1)[C@H](O)CNC[C@@H](O)[C@H](Cc1ccccc1)NC(=O)OC(C)(C)C)C(C)(C)C | HPLC | pH 5.5 | 10 µM | 99% |
| O=C1N(Cc2ccc(O)c(F)c2)[C@H](Cc2ccccc2)[C@H](O)CN(Cc2ccccc2)N1Cc1ccc(O)c(F)c1 | fluorescence |  | 0.0005 µM | 68% |
| CC(C)[C@H](NS(=O)(=O)N(C)Cc1ccccn1)C(=O)N[C@@H](Cc1ccccc1)[C@H](O)[C@H](O)[C@H](Cc1ccccc1)NC(=O)[C@@H](NS(=O)(=O)N(C)Cc1ccccn1)C(C)C | fluorescence |  | 0.1 µM | 60% |
| COc1cc(CN2C(=O)N(Cc3ccc(O)c(OC)c3)N(Cc3ccc(OCCO)cc3)C[C@@H](O)[C@H]2Cc2ccccc2)ccc1O | fluorescence |  | 0.0005 µM | 84% |
| COc1ccccc1CNC(=O)[C@H]1N(C(=O)[C@@H](O)[C@H](Cc2ccccc2)NC(=O)c2cccc(O)c2C)CSC1(C)C | HPLC |  | 0.05 µM | 65.8% |
| CC(C)[C@H](NC(=O)OCc1ccncc1)C(=O)N[C@@H](Cc1ccccc1)[C@@H](O)[C@H](O)[C@H](Cc1ccccc1)NC(=O)[C@@H](NC(=O)OCc1ccncc1)C(C)C | fluorescence |  | 0.005 µM | 74% |
| COc1cc(O)c2c(=O)c(O)c(-c3ccc(OC)c(O)c3)oc2c1 | fluorescence |  | 50 µg/mL | 12.9% |
| Cc1cccc(C)c1OCC(=O)N[C@@H](Cc1ccccc1)[C@H](O)C(=O)N1CSC(C)(C)[C@H]1C(=O)NCc1ccccc1 | HPLC |  | 0.05 µM | 86% |
| NC(=O)C[C@H](NC(=O)CCCCCCCCCCCCCCC(=O)N[C@H](C(=O)N[C@@H](Cc1ccccc1)C(N)=O)C1CCCCC1)C(=O)N[C@@H](Cc1ccccc1)C(=O)O | HPLC |  | 1 µM | 46% |
| CC(C)[C@H](NC(=O)OCc1ccccc1)C(=O)N[C@@H](Cc1ccccc1)[C@H](O)[C@H](Cc1ccccc1)NC(=O)[C@@H](NC(=O)OCc1ccccn1)C(C)C | fluorescence |  | 0.005 µM | 63% |
| COc1ccc(-c2cc(=O)c3c(OC)c(OC)c(OC)c(OC)c3o2)cc1 | fluorescence |  | 50 µg/mL | 48% |

Repeating the first 4 entries:

CC(C)(C)OC(=O)N[C@@H](Cc1ccccc1)[C@H](O)CNC[C@@H](O)[C@H](Cc1ccccc1)NC(=O)C1[C@H](O)CCC1(C)C ; method: HPLC ; setting: pH 5.5 ; tested at: 10 µM ; value: 100%
NS(=O)(=O)c1cccc(CN2C(=O)N(Cc3cccc(S(N)(=O)=O)c3)N(Cc3ccccc3)C[C@@H](O)[C@H]2Cc2ccccc2)c1 ; method: fluorescence ; tested at: 0.0005 µM ; value: 54.8%
CC1CCC2(C(=O)O)CCC3(C)C(=CCC4C5(C)CCC(O)C(C)(C(=O)O)C5=CCC43C)C2C1C ; method: substrate cleavage / fluorescence ; tested at: 100 µg/mL ; value: <50%
CC(C)[C@H](NC(=O)OCc1ccccn1)C(=O)NC(Cc1ccccc1)C(O)C(F)(F)C(Cc1ccccc1)NC(=O)OC(C)(C)C ; method: fluorescence ; tested at: 0.01 µM ; value: 48%